Sequences of proteins named here, by UniProt entry; tags and fusion partners are left off. Residues count along the entry.
UniProt K9N7C7, 3248-3553: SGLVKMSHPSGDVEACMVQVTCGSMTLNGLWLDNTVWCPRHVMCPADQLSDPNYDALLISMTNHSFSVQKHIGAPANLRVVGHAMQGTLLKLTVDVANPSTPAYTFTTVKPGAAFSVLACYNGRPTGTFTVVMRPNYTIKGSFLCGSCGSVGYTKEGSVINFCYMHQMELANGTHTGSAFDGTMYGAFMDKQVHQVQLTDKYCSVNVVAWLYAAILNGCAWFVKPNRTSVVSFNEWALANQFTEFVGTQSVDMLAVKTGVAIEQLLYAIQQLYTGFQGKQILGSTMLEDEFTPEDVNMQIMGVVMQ

According to US12060333B2 (Hoffmann-La Roche Inc., priority 2021, dated 2024):

What was measured:
SARS-CoV 3CLpro = SARS-CoV 3CLpro (Severe acute respiratory syndrome coronavirus, UniProt P0C6X7)
MERS-CoV 3CLpro = MERS-CoV 3CLpro (Middle East respiratory syndrome-related coronavirus, UniProt K9N7C7)

SMILES | IC50 (SARS-CoV 3CLpro) [nM] | IC50 (MERS-CoV 3CLpro) [nM]
Cc1cc(C(=O)N[C@@H](CC23CC(C2)C3)C(=O)NN(C[C@@H]2CCNC2=O)C(=O)[C@H](F)Cl)no1 [Example 71, N-[(1S)-1-(1-bicyclo[1.1.1]pentanylmethyl)-2-[2-[(2R)-2-chloro-2-fluoro-acetyl]-2-[[(3S)-2-axopyrrolidin-3-yl]methyl]hydrazino]-2-axo-ethyl]-5-methyl-isoxazole-3-carboxamide] | 180 | 160
O=C(N[C@@H](CC12CC(C1)C2)C(=O)NN(C[C@@H]1CCNC1=O)C(=O)[C@H](F)Cl)c1cc(C(F)(F)F)on1 [Example 99, N-[(1S)-1-(1-bicyclo[1.1.1]pentanylmethyl)-2-[2-[(2R)-2-chloro-2-fluoro-acetyl]-2-[[(3S)-2-axopyrrolidin-3-yl]methyl]hydrazino]-2-axo-ethyl]-5-(trifluoromethyl)isoxazole-3-carboxamide] |  | 230
